What was measured:
[1] = target: T1, w.t. HIV-1 YU2 gp120 glycoprotein (Human immunodeficiency virus type 1 group M subtype B, UniProt P35961); details: on average; cited from earlier work
T1 construct: (His)6 (C); made in house; host or cells: 293F cells

[2] = target: gp120 core bound to the 17b antibody (Human immunodeficiency virus type 1 group M subtype B, UniProt P35961); assay: Isothermal titration calorimetry, gp120 core bound to 17b; assay type: binding, HIV
[3] = target: gp120 core-17b complex (Human immunodeficiency virus type 1 group M subtype B, UniProt P35961); assay: Optical biosensor (BIAcore) binding assay; design: species or system HIV; details: BIAcore analysis
[4] = target: T2, YU2 gp120 (Human immunodeficiency virus type 1 group M subtype B, UniProt P35961); assay: Compound binding assay with [3H]-NBD-556, YU2 gp120; design: species or system HIV
T2 construct: (His)6 (C); made in house; host or cells: 293F cells

[5] = target: HIVYU2 gp120 core (Human immunodeficiency virus type 1 group M subtype B, UniProt P35961); assay: Isothermal titration calorimetry, thermodynamic cycle, gp120 core; assay type: binding, HIV; details: gp120 core alone, calculated by completing the thermodynamic cycle
[6] = target: T1, w.t. HIV-1 YU2 gp120 glycoprotein; assay type: binding; details: w.t. gp120, ITC, 25° C.

For NBD-556, the “residues structured on binding” value [1] is given as 67 residues, the Kd ([2]; gp120 core bound to the 17b antibody, ITC) is given as 1.5 µM and the “increase in affinity for the gp120 core bound to the 17b antibody” value ([2]; versus gp120 core alone) is given as “approximately 25 fold”. For the same substance, the Kd [3] was 6.6 µM, the “direct binding of 3H-labeled compound (in words)” value [4] was “efficiently” and the Kd [5] was 40 µM. It also gave a Kd [6] of 3.7 µM.

From patent US9776963B2, “Small molecule CD4 mimetics and uses thereof” (priority 2008, dated 2017)
